Pooled drug test results. Numbers come from NIAID ChemDB, via PubChem.

Shared fields: growth or infection tests; species: Plasmodium berghei; read-out: EC50

Blank or dashed fields: not listed here.

smiles | read by | cell line | strain | result
CC(C)(C)OC(=O)N[C@@H](CCCNC(=O)OCc1ccccc1)C(=O)N[C@@H](Cc1ccccc1)C(=O)OC(C)(C)C | schizont maturation | Erythrocytes | ANKA 2.34 | 33.88 µM
FC(F)(F)c1ccc2c(=Nc3ccc(-c4ccccc4)cc3)ccn(CCCN3CCCCC3)c2c1 | luciferase | Huh7 | - | >1 µM
CCN(CC)CCN1C(=O)c2ccccc2NC1c1ccc(OC)c(COc2ccc(F)cc2)c1 | luciferase | - | ANKA | 2.5 µM
Cc1nc2c(OC(F)F)cccc2n1-c1ccc(C(=O)NC2CC2)s1 | luciferase | - | - | 0.084 µM
O=c1c(-c2ccc(O)cc2)coc2cc(OC3OC(CO)C(O)C(O)C3O)cc(O)c12 | resazurin | Huh7 | GFP-Luc | 20 µM
Cc1ccc(C2Nc3ccccc3C(=O)N2CCCCN2CCOCC2)cc1 | luciferase | - | ANKA | >30 µM
CCN(CC)CCCn1ccc(=Nc2ccc(-c3ccccc3)cc2)c2ccc(C(F)(F)F)cc21 | luciferase | Huh7 | - | >1 µM
CCN(CC)CCN1C(=O)c2ccccc2NC1c1cccc(F)c1 | luciferase | - | ANKA | 20 µM
FC(F)(F)c1ccc2c(c1)c(=Nc1ccc(-c3ccccc3)cc1)ccn2CCCN1CCCCC1 | luciferase | Huh7 | - | >1 µM
CCN(CC)CCN1C(=O)c2ccccc2NC1c1ccc(C)cc1 | luciferase | - | ANKA | 2.4 µM
CCN(CC)CCn1ccc(=Nc2ccc(-c3ccccc3)cc2)c2ccc(Cl)cc21 | luciferase | Huh7 | - | >1 µM
CCN(CC)CCN1C(=O)c2ccccc2NC1c1cc(OC)c(OC)c(OC)c1 | luciferase | - | ANKA | 4.1 µM
CCCCCCCCCCCCCC#CC(=O)O | resazurin / fluorescence | Huh7 | - | 0.48 µg/mL
CC(C)(C)c1cc(C(=O)Nc2nc(CN)cs2)n(Cc2ccccc2)n1 | - | - | K1 | 0.08 µM
Clc1ccc2c(c1)c(=Nc1ccc(-c3ccccc3)cc1)ccn2CCCN1CCCCC1 | luciferase | Huh7 | - | >1 µM

2 of the rows above, restated:

| smiles | read by | cell line | strain | result |
|---|---|---|---|---|
| CCN(CC)CCN1C(=O)c2ccccc2NC1c1ccc(C)cc1 | luciferase | - | ANKA | 2.4 µM |
| CCN(CC)CCCn1ccc(=Nc2ccc(-c3ccccc3)cc2)c2ccc(C(F)(F)F)cc21 | luciferase | Huh7 | - | >1 µM |

ECn is the concentration giving n% inhibition of infection, replication or growth. Lines come from different laboratories, so protocols vary.